Source: PubChem BioAssay AID1259414 (Drosophila RNAi Screening Center, 2018)

- Test: 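Host factors increasing or decreasing Wolbachia levels in cultured fly cells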 (primary screen)
- System: Drosophila JW18 cells infected with Wolbachia
- Knock-down reagent: long dsRNA against Drosophila genes, 0.25 µg dsRNA per well of a 384-well plate
- Timing: 5 days
- Conditions: cells persistently infected with Wolbachia before knock-down; no added drug
- Read-out: 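Automated imaging of bacterial rRNA staining divided by host cell count, reported as plate-normalised robust z-score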
- Reading the numbers: Wolbachia per cell robust z: higher = more Wolbachia per host cell than the plate typical
- Hit rule: 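Active if absolute robust z reaches 1.5 in two or more of three replicates, leaving out multi- or no-target dsRNAs, genes unexpressed in JW18 and A1 wells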
The deposit covers about 24,000 reagents; below is an unselected part of those that have a named target and a result. Of all reagents, about 1,210 (5%) got an active call. 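Inactive calls also include excluded dsRNAs with several or no targets, genes unexpressed in JW18, and well A1, regardless of score.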 Entries without a mark were called inactive. A plus sign joins genes that one reagent is predicted to hit.

| Gene | dsRNA | Wolbachia per cell robust z, rep 1 | Wolbachia per cell robust z, rep 2 | Wolbachia per cell robust z, rep 3 |
| --- | --- | --- | --- | --- |
| snu | DRSC16589 | -12.2 | 0.207 | 0.0401 |
| BG642163 | DRSC00342 | -1.45 | 0.742 | 0.65 |
| BG642163 | DRSC00343 | 0.346 | 0.607 | 0.592 |
| et | DRSC19582 | 0.925 | -0.179 | 0.328 |
| btn | DRSC26486 | -2.05 | -0.403 | -0.336 |
| tok | DRSC17087 | 0.158 | -0.239 | -0.598 |
| tok | DRSC39140 | 0.416 | -0.931 | 0.129 |
| phyl | DRSC07663 | 1.17 | 0.444 | -2.36 |
| phyl | DRSC24829 | -0.103 | -2.37 | -1.37 |
| Cds + Setx | DRSC27090 | 0.792 | -0.289 | -0.71 |
| CG8960 | DRSC08612 | -0.253 | -0.301 | 0.382 |
| CG8960 | DRSC27132 | -4.04 | 1.14 | 0.732 |
| HERC2 | DRSC20566 | -0.728 (active) | -1.78 | -2.18 |
| CG11362 | DRSC04106 | 0.381 | 0.216 | -0.139 |
| CG11362 | DRSC22032 | 1.04 | 0.897 | 1.28 |
| CG11362 | DRSC27136 | 0.457 | -1.12 | -0.0996 |
| CG4025 | DRSC18523 | -1.63 | -0.672 | -0.611 |
| CG15152 | DRSC02453 | 1.22 | -0.0577 | -0.308 |
| MrgBP | DRSC06417 | -1.97 | -1.55 | -2.72 |
| MrgBP | DRSC29948 | -0.743 | -0.0982 | 0.339 |
| CG7548 | DRSC10874 | 1.57 | 0.689 | 1.69 |
| CG7548 | DRSC29043 | -0.149 | -0.236 | -0.348 |
| Adhr + Adh | DRSC01862 | 0.188 | 1.09 | -0.119 |
| Adhr + Adh | DRSC01863 | 0.197 | -1.86 | 0.353 |
| Or22a | DRSC00764 | -0.614 | -0.628 | -0.35 |
| Or22a | DRSC26009 | -0.768 | 0.456 | -1.22 |
| CG30471 | DRSC07096 | 0.235 | 1.57 | 0.234 |
| mthl4 | DRSC06998 | -2.95 (active) | -0.396 | -2.8 |
| Gprk2 | DRSC16682 | -0.344 | -0.245 | -4.7 |
| Gprk2 | DRSC23336 | 0.335 | -2.58 | 0.616 |
| rut | DRSC22976 | 0.418 | -0.259 | 0.0699 |
| rut | DRSC39112 | -0.8 | -0.567 | -0.501 |
| Rrp5 | DRSC15862 | -0.176 | -0.417 | -0.277 |
| Rrp5 | DRSC29039 | -0.334 | -6.95 | -1.48 |
| Pgant3 | DRSC05942 | 1.65 | 0.117 | 0.927 |
| Pgant3 | DRSC29252 | 1.45 | 0.117 | 0.593 |
| rho-4 | DRSC19761 | -0.128 | -0.171 | 0.648 |
| rho-4 | DRSC19762 | -0.0955 | 0.213 | -0.733 |
| caup | DRSC23050 | -0.697 | -0.582 | 0.232 |
| CG31775 + CG42586 | DRSC01413 | -1.21 | -0.888 | -0.423 |
| CG31775 + CG42586 | DRSC23266 | -0.142 | -3.53 | -6.07 |
| CG34011 | DRSC38925 | -1.77 | -0.777 | -2.3 |
| Hug | DRSC16969 | -1.19 | 1.3 | -0.693 |
| Hug | DRSC29749 | -0.158 | -1.07 | -0.511 |
| Srp54k | DRSC11289 | 2.53 (active) | 0.991 | 1.7 |
| Srp54k | DRSC41411 | 0.987 | 1.53 | 0.293 |
| CG12682 | DRSC17873 | -0.511 | -0.64 | -0.119 |
| fs(1)M3 | DRSC18381 | 0.0433 | -0.315 | -0.731 |
| fs(1)M3 | DRSC29155 | -0.919 | -0.177 | -0.029 |
| Rpi | DRSC04583 | 0.55 | -0.627 | 0.041 |
| v | DRSC20383 | -0.67 | 0.803 | -0.45 |
| v | DRSC39107 | -1.32 | 0.515 | -1.76 |
| Dd | DRSC20539 | -3.34 (active) | -0.705 | -2.16 |
| Dd | DRSC41352 | -0.23 | -1.01 | 0.638 |
| CG13215 | DRSC06337 | -0.577 | 0.945 | 0.448 |
| lncRNA:CR33218 | DRSC22944 | -2.82 | -4.36 | -2.71 |
| CG15803 | DRSC15121 | -0.0149 | -5.19 | 0.453 |
| CG17197 | DRSC41320 | 0.864 | 1.54 | -1.27 |
| Tgt | DRSC00672 | -0.944 | 0.353 | -0.239 |
| dop | DRSC10655 | -0.6 | -0.194 | -0.236 |
| dop | DRSC29525 | -0.789 | -2.24 | 0.0199 |
| mip40 | DRSC06541 | -0.951 | -1.01 | 0.945 |
| Nubp1 | DRSC02639 | -2.01 | -0.354 | 0.133 |
| tay | DRSC20142 | -0.144 | -11.1 | -0.259 |
| CG15185 | DRSC12565 | -0.234 | -1.76 | -1.09 |
| CG8249 | DRSC07125 | 0.897 | 0.709 | 0.615 |
| CG42450 | DRSC20022 | -4.04 | -1.36 | -1.49 |
| CG42450 | DRSC22751 | -3.09 | 0.452 | -1.06 |
| CG43102 | DRSC14797 | -2.21 | 0.76 | 1.39 |
| CG43102 | DRSC16239 | 0.508 | 0.736 | 0.328 |
| CG43102 | DRSC28809 | -0.915 | -0.0939 | -1.52 |
| CR18166 + CG3176 + CG32817 | DRSC28432 | -1.13 | 0.385 | -1.33 |
| CG13946 | DRSC00364 | -5.67 | 0.244 | -9.96 |
| sud1 + PIG-S | DRSC15388 | 0.381 | -2.57 | 0.34 |
| CG13841 | DRSC14691 | -4.36 | 0.671 | 0.434 |
| CG13841 | DRSC26257 | 2.2 (active) | 1.56 | 2.47 |
| CG8483 | DRSC16430 | -0.185 | -0.27 | -0.251 |
| Cpr31A | DRSC02779 | 1.61 | -0.116 | -0.214 |
| Cpr31A | DRSC28742 | -0.267 | -0.647 | -0.191 |
| scpr-B | DRSC15200 | 0.216 | -0.109 | -2.78 |
| CG15260 | DRSC01977 | -0.608 | -0.246 | -0.532 |
| ZnT49B | DRSC07225 | -0.524 | 0.434 | -0.0443 |
| CG14451 | DRSC11708 | 0.477 | -0.415 | -1.25 |
| CG14451 | DRSC26512 | 0.0322 | -0.368 | -1.3 |
| CG5707 | DRSC08573 | -0.0744 | 0.665 | -9.09 |
| CG5707 | DRSC24854 | 1.22 | -0.197 | 0.558 |
| Pmvk | DRSC02032 | 0.0196 | -0.106 | 0.726 |

5 entries from above, showing only “Wolbachia per cell robust z, rep 2”:
CG8960 [DRSC08612]	-0.301
CG8960 [DRSC27132]	1.14
HERC2 [DRSC20566]	-1.78 (active)
CG11362 [DRSC04106]	0.216
CG11362 [DRSC22032]	0.897
